Article PMC6471621, “Evaluation of the Anti-Trypanosomal Activity of Vietnamese Essential Oils, with Emphasis on Curcuma longa L. and Its Components” (Molecules, 2019)

Key:
[1] = tested on: WI38 human non-cancer fibroblast cell line; experiment: Cytotoxicity assay (MTT) on WI38; format: cell-based; conditions: pure compounds; SI = IC50 on mammalian cells/IC50 on protozoan parasites
Description: (§1) The human non-cancer fibroblast cell line WI38 (ATCC Number CCL-75 – Standards, UK) and macrophage-like murine cell line J774 (ECACC Number 91051511 – Public Health England, UK) were grown in DMEM and RPMI medium (Gibco-Thermo Fisher Scientific, Merelbeke, Belgium or Sigma-Aldrich, Bornem, Belgium), respectively, supplemented with 10% fetal bovine serum and penicillin-streptomycin (100 UI/mL) (Sigma-Aldrich, Bornem, Belgium).
(§2) The cytotoxicity assays were performed as described previously with concentrations ranging from 50 to 1.40 nL/mL (dilution of 1.67). The selectivity index (SI) values were calculated using the formula:SI = IC50 on mammalian cells/IC50 on protozoan parasites

[2] = tested on: J774 macrophage-like murine cell line; experiment: Cytotoxicity assay (MTT) on J774; format: cell-based; conditions: pure compounds; SI = IC50 on mammalian cells/IC50 on protozoan parasites
Description: as §1, §2

Row | SMILES | SI (WI38) [1] | SI (J774) [2]
1 | C=C1C=CC(C(C)CC(=O)C=C(C)C)CC1 (centres unmarked) [Curlone] | 31.7 | 18.2
2 | CC(C)=CCCC(C)c1ccc(C)cc1 (centres unmarked) [ar-Curcumene] | 1.7 | 1.8
3 | CC(C)=CC(=O)CC(C)c1ccc(C)cc1 (centres unmarked) [ar-Turmerone] | 1.5 | 1.6
4 | C=C1C=CC(C(C)CCC=C(C)C)CC1 (stereo not drawn) [β-Sesquiphellandrene] | 1.9 | 2.1
